Entries after “also recorded” stand apart in the source; their conditions may differ. Like-named read-outs stand apart in the source and are kept apart here.

The text below walks through data of patent US20230174946A1, “ORGAN INFECTION MODELS” (priority 2020, published 2023).

Assay [1] has as its system SARS-CoV-2. It counts as cell-based. The settings on record: 10 µM Hydroxychloroquine or Remdesivir, 100 units/ml IFNB1.
Assay [2] deals with SARS-CoV-2. It counts as cell-based. As to conditions: pre-treatment, 10 µM Hydroxychloroquine or Remdesivir, 100 units/ml IFNB1.
The test system of assay [3] is SARS-CoV-2. The settings on record: cited from earlier work.
Assay [4] has as its system SARS-CoV-2. It counts as cell-based. As to conditions: 10 µM Hydroxychloroquine or Remdesivir, 100 units/ml IFNB1. This is another data set of the same source.

B1: IFNB1: known anti-viral cytokine; Type 1 interferon; stock provided by Dr. Jay Kolls (protein, UniProt P01574 22-187, looked up)
Interferon beta: MSYNLLGFLQRSSNFQCQKLLWQLNGRLEYCLKDRMNFDIPEEIKQLQQFQKEDAALTIYEMLQNIFAIFRQDSSSTGWNETIVENLLANVYHQINHLKTVLEEKLEKEDFTRGKLMSSLHLKRYYGRILHYLKAKEYSHCAWTIVRVEILRNFYFINRLTGYLRN
Take B1: the “reduction in viral N gene RNA/expression compared to untreated infected organoids” value with SARS-CoV-2 [1] (human 3D alveolar organoids, added 3 hours prior to infection and maintained) worked out at 3.2 log. Besides, in the assay with SARS-CoV-2 [1] (pre-treatment), the “effect on viral replication in alveolar organoid cultures (in words)” value was “significantly reduced viral replication”. Further, the “effect on viral N gene RNA / viral replication in proximal ALI cultures (in words)” value in the assay on SARS-CoV-2 [2] is “did not show a significant effect”; in the assay on SARS-CoV-2 [2] (listed as IFNB) it was “did not have an effect on viral replication”. For the same molecule, in the assay with SARS-CoV-2 [3], the “effect on SARS-CoV-2 infection in Vero Cells” value is reported as “reduce SARS-CoV-2 infection”. The “reduction in viral N gene RNA/expression compared to untreated infected AT2 cultures” value in the assay on SARS-CoV-2 [4] (human AT2 cultures, 3 hours prior to infection and maintained) came to 3.2 log. Besides, the “effect on viral infection/replication in AT2 cultures (in words)” value in the assay with SARS-CoV-2 [4] (pre-treatment) is on record as “significant suppression viral infection; also recorded: significantly reduced viral replication”.
